Anti-infective test results gathered from many reports (values: NIAID ChemDB through PubChem).

Common to all: enzyme or target tests; agent: HIV-1; protein: Reverse transcriptase; read-out: IC50

An empty or dashed field is not shown.

smiles,method,strain,changes,result
Oc1cc2c(cc1O)CN(c1nn3c(C4CC4)nnc3c3ccccc13)CC2,RT activity / fluorescence,KER2008,-,2.04 µM
CC(C)c1ccc(-n2nnnc2SCC(=O)Nc2ccc(C#CC(C)(C)C(=O)O)cc2Cl)c(Cl)c1,PicoGreen / fluorescence,WT,-,<1 µM
CC(C)Nc1cccnc1N1CCN(Cc2cc3cc(F)ccc3[nH]2)CC1,nucleotide incorporation,-,-,<100 µM
Cc1nnc2c3ccccc3c(N3CCc4c(F)cccc4C3)nn12,RT activity / fluorescence,IIIB,-,2.16 µM
CC(C)(C)c1ccc(-n2nnnc2SCC(=O)Nc2ccc(C(=O)NCCC(=O)O)cc2Cl)c(Cl)c1,PicoGreen / fluorescence,WT,-,<1 µM
CCN1c2ncc(CCOc3ccc(C(=O)Nc4ccccc4C(=O)O)cc3C)cc2C(=O)N(C)c2cccnc21,nucleotide incorporation / radiometric,IIIB,-,<0.05 µM
CC(C)Nc1cccnc1N1CCN(C(=O)c2cc3cc(N)ccc3[nH]2)CC1,nucleotide incorporation,-,-,<100 µM
CCc1cc(NCc2nc3c(C)ccc(C)c3o2)c(=O)[nH]c1C,nucleotide incorporation,-,RT-Y188C,0.2726 µM
CC(C)(C)c1ccc(-n2nnnc2SCC(=O)Nc2ccc(-c3ccc(CCC(=O)O)cc3)cc2Cl)c(Cl)c1,PicoGreen / fluorescence,-,RT-K103 Y181C,<1 µM
CCN1c2ncc(CCOc3ccc(C(=O)NS(=O)(=O)c4ccccc4)cc3C)cc2C(=O)N(C)c2cccnc21,nucleotide incorporation / radiometric,IIIB,-,<0.05 µM
Nc1cnc2c(c1)CN(c1nn3c(C4CC4)nnc3c3ccccc13)CC2,RT activity / fluorescence,98US_MSC5016,-,21.7 µM
CCN1c2ncc(CCOc3ccc(-c4ccc(C(=O)O)cc4)cc3)cc2C(=O)N(C)c2ccc(Cl)nc21,nucleotide incorporation / radiometric,IIIB,RT-K103N Y181C,<0.05 µM
COc1cc2c(cc1OC)CN(c1nn3c(C(F)F)nnc3c3ccccc13)CC2,RT activity / fluorescence,KER2008,-,4.05 µM
CC(C)(N)C#Cc1ccc(NC(=O)CSc2nnnn2-c2ccc(C3CC3)cc2Cl)c(Cl)c1F,PicoGreen / fluorescence,WT,-,<1 µM
Cc1nnc2c3ccccc3c(N3Cc4ccccc4C(C)(C)C3)nn12,RT activity / fluorescence,IIIB,-,23.6 µM
Cc1ccc(-c2c(OCC(=O)Nc3ccc(C#CC(C)(C)O)cc3Cl)n[nH]c2C)c(Cl)c1,PicoGreen / fluorescence,WT,-,<1 µM
CC(C)c1nnc2c3ccccc3c(N3CCc4ccc(N)cc4C3)nn12,RT activity / fluorescence,98US_MSC5016,-,0.2 µM
CCNc1cccnc1N1CCN(Cc2cc3cc(OC)ccc3[nH]2)CC1,nucleotide incorporation,-,-,<100 µM
COc1cccc(CC(=O)Nc2ccc(NC(=O)CSc3nnnn3-c3ccc(C(C)(C)C)cc3Cl)c(Cl)c2)c1,PicoGreen / fluorescence,WT,-,<1 µM
CC(C)Nc1cccnc1N(C)CCCCN(C)C(=O)c1cc2ccccc2[nH]1,nucleotide incorporation,-,-,<100 µM
CCNC(=O)c1ccc(NC(=O)CSc2nnnn2-c2ccc(C)cc2Cl)c(Cl)c1,PicoGreen / fluorescence,-,RT-K103 Y181C,<1 µM
O=[N+]([O-])c1ccc2c(c1)CN(c1nn3c(C4CC4)nnc3c3ccccc13)CC2,RT activity / fluorescence,98US_MSC5016,-,7.02 µM
CC(C)(C#Cc1ccc(NC(=O)CSc2nnnn2-c2cc(Cl)ccc2Cl)c(Cl)c1)NC(=O)CN1CCNCC1,PicoGreen / fluorescence,-,RT-K103 Y181C,<1 µM
CCN1c2ncc(CCOc3ccc(-c4cocn4)cc3C)cc2C(=O)N(C)c2cccnc21,nucleotide incorporation / radiometric,IIIB,RT-K103N Y181C,<0.05 µM

The last 3 rows once more:

smiles | method | strain | changes | result
O=[N+]([O-])c1ccc2c(c1)CN(c1nn3c(C4CC4)nnc3c3ccccc13)CC2 | RT activity / fluorescence | 98US_MSC5016 | - | 7.02 µM
CC(C)(C#Cc1ccc(NC(=O)CSc2nnnn2-c2cc(Cl)ccc2Cl)c(Cl)c1)NC(=O)CN1CCNCC1 | PicoGreen / fluorescence | - | RT-K103 Y181C | <1 µM
CCN1c2ncc(CCOc3ccc(-c4cocn4)cc3C)cc2C(=O)N(C)c2cccnc21 | nucleotide incorporation / radiometric | IIIB | RT-K103N Y181C | <0.05 µM

Conditions beyond the fields shown may differ between rows. ICn is the concentration giving n% inhibition.